In the experiment the test system is human hepatoma Huh-7 cell line harboring a HCV replicon. Kind of experiment: HCV replicon assay (luciferase) in Huh-7 cells. It counts as cell-based. The settings on record: Huh-7 HCV replicon cells, 3 days incubation, inhibition of viral replication.

This is a selection: effects in other tests are not listed, and their absence says nothing.

Consider `COP1(=O)CCC(N2CCC(N(c3cc(C#CC(C)(C)C)sc3C(=O)O)C(=O)[C@H]3CC[C@H](C)CC3)CC2)CC1` (stereo partly shown), for which the “% inhibition at 2 μM” value amounted to 100.0%.

The values above are taken from US8765722B2 (priority 2009, dated 2014).
